# According to patent US6001867A, “1-aryl-dibenzothiophenes” (American Home Products Corporation, priority 1999, dated 1999):
# Tested on: rat hepatic microsomal PTPases
# Assay: Inhibition of tri-phosphorylated insulin receptor dodecaphosphopeptide dephosphorylation by rat hepatic PTPases (malachite green)
# Settings: test compound 50 μM; rat hepatic microsomal fraction; substrate 50 uM, 37 deg.C
structure (smiles),measurement,value
O=[As]c1ccccc1 (stereo not shown),% Change from Control (PTPase activity),-57.06%
